Anti-infective test results gathered from many reports (values: NIAID ChemDB through PubChem).

Shared fields: tests in culture; species: Herpes simplex virus 2

Neighbouring rows are from separate reports.

{"compound": "CC(C)=CCCC(CO)C1CCC2C3CC=C4C[C@H](O)[C@@H](O)CC4(C)C3CCC12C", "strain or isolate": "G", "cells": "VERO", "method": "plaque count", "endpoint": "inhibition", "tested at": "10 µg/mL", "value": "33.3%"}
{"compound": "Nc1nc(=O)n([C@@H]2O[C@H](CO)[C@@H](O)[C@@H]2F)cc1I", "strain or isolate": "G", "cells": "VERO", "method": "virus yield", "endpoint": "inhibition", "tested at": "0.01 µM", "value": "50%"}
{"compound": "Nc1ccn([C@H]2C[C@H](O)[C@@H](CO)O2)c(=O)n1", "cells": "HeLa", "method": "virus yield", "endpoint": "EC90", "value": "5 µM"}
{"compound": "Nc1nc2c(ncn2COCCO)c(=O)[nH]1", "strain or isolate": "Jensen", "cells": "HFF", "method": "plaque count", "endpoint": "EC50", "value": "0.3 µg/mL"}
{"compound": "CC12CC[C@H](O)CC1=CCC1C2CCC2(C)C(C(=O)COS(=O)(=O)O)CCC12", "strain or isolate": "G", "cells": "VERO", "method": "plaque count", "endpoint": "inhibition", "tested at": "80 µg/mL", "value": "16.9%"}
{"compound": "Cc1cn([C@@H]2O[C@H](CO)[C@@H](O)[C@@H]2F)c(=O)[nH]c1=O", "strain or isolate": "G", "cells": "PRK", "method": "cytopathic effect", "endpoint": "inhibition", "tested at": "0.02 µg/mL", "value": "≥25%"}
{"compound": "Cc1cn([C@@H]2O[C@H](CO)[C@H]2CO)c(=O)[nH]c1=O", "strain or isolate": "11680 (TK altered)", "cells": "HFF", "method": "plaque count", "endpoint": "EC50", "value": "47 µg/mL"}
{"compound": "Nc1ccn([C@@H]2O[C@H](CO)C[C@H]2O)c(=O)n1", "cells": "HeLa", "method": "virus yield", "endpoint": "EC90", "value": ">250 µM"}
{"compound": "O=c1[nH]c(=O)n([C@H]2C[C@H](O)[C@@H](CO)O2)cc1/C=C/C(F)(F)F", "strain or isolate": "G", "cells": "PRK", "method": "virus yield", "endpoint": "EC99", "value": "100 µg/mL"}
{"compound": "Nc1nc2c(ncn2COCCO)c(=O)[nH]1", "strain or isolate": "196", "cells": "VERO", "method": "plaque count", "endpoint": "EC90", "value": "1.1 µM"}
{"compound": "CC(C)=CCC[C@@H](COS(=O)(=O)O)C1CCC2C3CC[C@H]4C[C@H](OS(=O)(=O)O)[C@@H](O)CC4(C)C3CCC21C", "strain or isolate": "G", "cells": "VERO", "method": "plaque count", "endpoint": "inhibition", "tested at": "20 µg/mL", "value": "30.3%"}
{"compound": "O=c1[nH]c(=O)n([C@H]2C[C@H](O)[C@@H](CO)O2)cc1I", "strain or isolate": "G", "cells": "PRK", "method": "cytopathic effect", "endpoint": "inhibition", "tested at": "0.91 µg/mL", "value": "≥25%"}
{"compound": "Nc1ncnc2c1ncn2[C@@H]1O[C@H](CO)[C@@H](O)[C@@H]1O", "strain or isolate": "X-79", "cells": "MEF", "method": "plaque count", "endpoint": "EC50", "value": "60 µM"}
{"compound": "Nc1nc(=O)n([C@@H]2O[C@H](CO)[C@@H](O)[C@@H]2F)cc1I", "strain or isolate": "K979", "cells": "HEP-2", "method": "cytopathic effect", "endpoint": "inhibition", "tested at": "0.03 µg/mL", "value": "≥25%"}
{"compound": "O=C(NCc1ccc(Cl)cc1)c1cn2c3c(cc(CN4CCOCC4)cc3c1=O)OC(c1cccnc1)C2", "strain or isolate": "L6262351 (WILD TYPE)", "cells": "HFF", "method": "plaque count", "endpoint": "EC50", "value": ">13 µM"}
{"compound": "O=C(O)P(=O)(O)O", "strain or isolate": "X-79", "cells": "MEF", "method": "plaque count", "endpoint": "EC50", "value": "31 µg/mL"}
{"compound": "O=c1[nH]c(=O)n([C@H]2C[C@H](O)[C@@H](CO)O2)cc1/C=C/Br", "strain or isolate": "K979", "cells": "HEP-2", "method": "cytopathic effect", "endpoint": "inhibition", "tested at": "3 µg/mL", "value": "≥25%"}
{"compound": "Nc1nc2c(ncn2CC(CO)CCO)c(=O)[nH]1", "strain or isolate": "B4327", "cells": "VERO", "method": "plaque count", "endpoint": "EC50", "value": "14 µM"}
{"compound": "CC(=O)OC[C@H]1[C@H](COC(C)=O)[C@@H](COC(C)=O)O[C@H]1n1cnc2c(N)ncnc21", "strain or isolate": "X-79", "cells": "MEF", "method": "plaque count", "endpoint": "EC50", "value": "172 µM"}
{"compound": "Cc1cn([C@H]2C[C@H](O)[C@@H](CO)O2)c(=O)nc1N", "cells": "HeLa", "method": "virus yield", "endpoint": "EC90", "value": "125 µM"}
{"compound": "Nc1ccn([C@@H]2O[C@H](CO)[C@@H](O)[C@@H]2O)c(=O)n1", "strain or isolate": "E304", "endpoint": "MIC", "value": "4.4 µg/mL"}
{"compound": "C/C=C/c1cn([C@H]2C[C@H](O)[C@@H](CO)O2)c(=O)[nH]c1=O", "strain or isolate": "G", "cells": "PRK", "method": "virus yield", "endpoint": "EC99", "value": "18 µg/mL"}
{"compound": "Cn1cc(C(=O)NCc2ccc(Cl)cc2)c(=O)c2cc(CN3CCOCC3)ccc21", "strain or isolate": "11572 (ACV-resistant)", "cells": "HFF", "method": "plaque count", "endpoint": "EC50", "value": "2.6 µM"}
{"compound": "Cc1cn([C@H]2C[C@H](O)[C@@H](CN)O2)c(=O)[nH]c1=O", "strain or isolate": "Strain G", "cells": "VERO", "method": "plaque count", "endpoint": "EC90", "value": ">400 µM"}
{"compound": "Cc1cn([C@@H]2O[C@H](CO)[C@@H](O)[C@@H]2F)c(=O)[nH]c1=O", "strain or isolate": "G", "cells": "VERO", "method": "virus yield", "endpoint": "inhibition", "tested at": "0.5 µM", "value": "71%"}
{"compound": "Nc1nc2c(ncn2C/C=C\\CO)c(=O)[nH]1", "strain or isolate": "91075", "cells": "SIRC", "method": "plaque count", "endpoint": "EC50", "value": "3.6 µM"}
{"compound": "Nc1ccn([C@H]2O[C@@H](CO)[C@H](O)[C@H]2F)c(=O)n1", "strain or isolate": "G", "cells": "VERO", "method": "virus yield", "endpoint": "inhibition", "tested at": "10 µM", "value": "97%"}
{"compound": "Cc1cccc(C)c1N(CC(=O)Nc1ccc(-c2ncon2)cc1)C(=O)C1CCS(=O)(=O)CC1", "strain or isolate": "2 (G)", "cells": "HEF", "method": "plaque count", "endpoint": "EC90", "value": "0.46 µM"}
{"compound": "CC(C)CCCC(COS(=O)(=O)O)C1CCC2C3CC=C4C[C@H](O)[C@@H](OS(=O)(=O)O)CC4(C)C3CCC12C", "strain or isolate": "G", "cells": "VERO", "method": "plaque count", "endpoint": "inhibition", "tested at": "20 µg/mL", "value": "51.5%"}
{"compound": "Nc1nc2c(ncn2COCCO)c(=O)[nH]1", "strain or isolate": "16053 8702 (acyclovir-susceptible)", "cells": "HFF", "method": "cytopathic effect", "endpoint": "EC50", "value": "1 µg/mL"}
{"compound": "O=c1ccn([C@@H]2O[C@H](CO)[C@@H](O)[C@@H]2F)c(=O)[nH]1", "strain or isolate": "G", "cells": "VERO", "method": "virus yield", "endpoint": "inhibition", "tested at": "0.1 µM", "value": "61%"}

Again, the opening 2 rows:

| compound | strain or isolate | cells | method | endpoint | tested at | value |
|---|---|---|---|---|---|---|
| CC(C)=CCCC(CO)C1CCC2C3CC=C4C[C@H](O)[C@@H](O)CC4(C)C3CCC12C | G | VERO | plaque count | inhibition | 10 µg/mL | 33.3% |
| Nc1nc(=O)n([C@@H]2O[C@H](CO)[C@@H](O)[C@@H]2F)cc1I | G | VERO | virus yield | inhibition | 0.01 µM | 50% |

Inhibition is in % at the dose shown (toxicity tests: loss of growth or viability). ECn: concentration that inhibits the pathogen or its effect by n%.